Reference: patent publication US20150038408A1, “Polypeptides for treating and/or limiting influenza infection” (University of Washington, published 2015)
Positions count from the first letter of the chain named.

B1: HB36 [change] (designed binder)
chain: MSNAMDGQQLNRLLLEWIGAWDPFGLGKDAYDVEAEAVLQAVYETEDAFDLAMRIMWIYTFAFNRPIPFPHAQKLARRLLELKQAASSPLPLE
B2: HB36.2 ([change]) (designed binder)
chain: B1 chain with T60V
B3: HB80 [change] (designed binder)
chain: MASTRGSGRPWDFSENLAFELALAFTNKDTPDRWANVAQYVSGRTPEEVKKHYEILVEDIKYIESGKVPFPNYRTTGGNMKTDEKRFRNLKIRLE
B4: HB80 [change] (designed binder)
chain: B3 chain with T26V
B5: HB80 [change] (designed binder)
chain: B3 chain with T26M, N36K

Molecular target: A/South Carolina/1/1918 (H1N1) hemagglutinin ectodomain (Influenza A virus A/South …)

Binder	fold improvement in affinity against HB36	fold increase in apparent binding affinity against HB36	fold improvement in affinity against HB80
B1	> 10 fold	25 fold	–
B2	> 10 fold	25 fold	–
B3	–	–	> 10 fold
B4	–	–	> 10 fold
B5	–	–	> 10 fold
